Results of unrelated studies side by side (data: NIAID ChemDB).

Shared fields: whole-cell or culture tests; agent: Mycobacterium tuberculosis

Lines come from different laboratories, so protocols vary. Inhibition is in % at the dose shown (toxicity tests: loss of growth or viability). ECn: concentration that inhibits the pathogen or its effect by n%. Blank or dashed fields: not listed here. A number after MIC or MFC names an inhibition level or a share of isolates. MIC bound comes from a single tested concentration.

SMILES	strain or isolate	method	read-out	tested at	value
Cc1ccc(/C=C(\C(N)=O)n2nnc3ccccc32)cc1	H37Rv	-	EC50	-	>12.5 µg/mL
C[C@@H]1CO[C@@H]2C3=C(C(=O)C=CC3=O)[C@@H]3OC(=O)[C@H]4CC[C@H]5[C@H]1CC[C@]25[C@@H]43	H37Rv	BACTEC	MIC bound	-	>12.5 µg/mL
c1cc2c[n+](c1)CCCCCCCCCCCCCCc1ccc[n+](c1)CCCCCCCCCCCCCC2	H37Rv	-	MIC	-	8 µg/mL
CCCCC[C@]1(C(=O)CCC)CC[C@@]2(c3ccccc3)ON12	H37Ra	-	MIC	-	100 µg/mL
CCc1cc(C(N)=S)ccn1	pMV261	-	MIC	-	1 µg/mL
Nc1c(C2CCCCC2)c(=O)on1C(=O)c1ccccc1	H37Rv	resazurin	inhibition	6.25 µg/mL	71%
COc1c(N2CC[C@@H](C(C)(C)N)C2)c(F)cc2c(=O)c3c(=O)[nH]sc3n(C3CC3)c12	Beijing strain isolate 13	-	MIC	-	0.06 µg/mL
N#Cc1ccc(-n2c(=O)oc3cc(Cl)ccc3c2=O)cc1	CNCTC MY331/88	-	MIC	-	8 µM
N#Cc1c(N)[n+]([O-])c2ccc(C(F)(F)F)cc2[n+]1[O-]	H37Rv	-	inhibition	6.25 µg/mL	99%
CCn1c2ccc([N+](=O)[O-])cc2c2c([N+](=O)[O-])c(NC=O)ccc21	H37Rv	BACTEC	inhibition	12.5 µg/mL	76%
Cc1ccc2c(=O)n(-c3ccc(Cl)c(Cl)c3)c(=O)oc2c1	CNCTC MY331/88	-	MIC	-	16 µM
CCCCCCCCCCCCCCCCNC(CCO)C1OC2OC(C)(C)OC2[C@@H]1OC	H37Rv	-	MIC	-	6.25 µg/mL
CC1OC(=O)c2ccc(O)cc21	H2	-	MIC	-	300 µg/mL
CCCCOc1ccc(OCC)cc1NCc1cnc2nc(N)nc(N)c2c1C	H37Ra	-	MIC	-	>64 µg/mL
CC1OC(=O)c2ccccc21	H2	-	MIC	-	1000 µg/mL
OC[C@H]1O[C@@H](CSc2ccccc2)[C@@H](O)[C@@H]1O	H37Ra	-	MIC	-	>128 µg/mL
CCCCCCCCCCCCCCCCCCNC(CCO)C1OC2OC(C)(C)OC2[C@@H]1OCc1ccccc1	H37Rv	-	MIC	-	12.5 µg/mL
CCOC(=O)Nc1c(C#N)[n+]([O-])c2ccccc2[n+]1[O-]	H37Rv	-	MIC	-	<12.5 µg/mL
CO[C@@H]1C=C[C@@]23c4cc5c(cc4[C@H](O)O[C@H]2CN(C)[C@H]3C1)OCO5	H37Rv	BACTEC	inhibition	12.8 µg/mL	21%
O=S(C[C@@H]1N[C@H](CO)[C@@H](O)[C@@H]1O)c1ccccc1	H37Ra	BACTEC	EC50	-	>12.5 µg/mL
Cc1ccnc(NS(=O)(=O)c2ccc(N=Nc3ccc(N)nc3N)cc2)n1	H37Rv	BACTEC	MIC	-	≥12.5 µg/mL
CCCCCCCNC(CCO)C1OC2OC(C)(C)OC2[C@@H]1OC	H37Ra	-	MIC	-	50 µg/mL
CC(=O)Oc1c(C)c2c(O)c3c1C1=C(OCOC1=C(C)C3=O)C(C)=CC(C)(O)C(O)C(C)C(O)C1C(=O)OC(C(C)C1O)C(C)(O)/C=C\C=C(\C)C(=O)N2	H37Rv	BACTEC	MIC bound	-	>12.8 µg/mL
Nc1ccc(NC(=S)C(=O)Nc2ccc3ccccc3c2)cc1	H37Rv	-	MIC	-	3000 µM
Cc1ccc(-n2c(=O)oc3ccc(C)cc3c2=O)cc1	CNCTC MY331/88	-	MIC	-	62 µM
C[C@H]1CC[C@@H]2N(C1)C[C@@H]1[C@](O)([C@@H](O)C[C@@]3(O)[C@@H]4CC[C@@H]5[C@]6(O)O[C@@]4(C[C@@]13O)[C@@]5(C)CC[C@@H]6O)[C@]2(C)O	H37Rv	BACTEC	inhibition	12.5 µg/mL	4%
CCCC(=O)[C@@]1(CCC2OCCO2)CC[C@@]2(c3ccccc3)ON12	H37Ra	-	MIC	-	200 µg/mL
O=c1oc2ccc(Cl)cc2c(=O)n1-c1ccc(F)cc1	CNCTC MY331/88	-	MIC	-	8 µM
NC(=S)NN=C1/C(=C/c2ccco2)CNC/C1=C\c1ccco1	H37Rv	agar / visual reading	MIC	-	3.125 µg/mL
Oc1oc(-c2ccccc2)nc1/C=C1/C=NN=N1	H37Rv	BACTEC	MIC bound	-	>12.5 µg/mL
CCN(CC)CCNC(=O)Nc1c(C#N)[n+]([O-])c2cc(Cl)c(Cl)cc2[n+]1[O-]	H37Rv	-	inhibition	6.25 µg/mL	98%
CC1OC(=O)c2cc(N)ccc21	H2	-	MIC	-	10 µg/mL
COC(=O)c1cc(NC(=O)Nc2cc(C(=O)OC)n(C)n2)nn1C	H37Rv	resazurin	MIC bound	-	>6.25 µg/mL
CCCOc1ccc(OC)cc1NCc1cnc2nc(N)nc(N)c2c1C	H37Ra	-	MIC	-	16 µg/mL
NCCC(O)C(N)CC(=O)NC1CNC(=O)C(C2CCN=C(N)N2)NC(=O)/C(=C/NC(N)=O)NC(=O)C(CO)NC(=O)C(CO)NC1=O	H37Rv	-	MIC	-	3.2 µg/mL
COc1ccc(C(=O)Nn2c(-c3ccccc3)ccc2-c2ccccc2)cc1	H37Rv (ATCC 27294)	resazurin	inhibition	100 µg/mL	90%
Clc1ccc(N=C2/C(=C/c3ccco3)CNC/C2=C\c2ccco2)cc1	H37Rv	agar / visual reading	MIC	-	6.25 µg/mL
CC(=O)C[C@@H]1C[C@H]2[C@H]([C@@H]3c4[nH]c5ccccc5c4CCN13)[C@H](O)C13CC/C=C\CCCCN1CC21CC/C=C\CCCNC13	H37Rv	-	MIC	-	1.5 µg/mL
CCOCCN(CCOCC)c1ccc2nc3c(oc2c1)c1c(O)c2c(=O)c(C)c4c(c23)C(=O)[C@@](C)(O/C=C/[C@H](OC)[C@@H](C)[C@@H](OC(C)=O)[C@H](C)[C@H](O)[C@H](C)[C@@H](O)[C@@H](C)/C=C/C=C(/C)C(=O)N1)O4	H37Rv	-	MIC	-	0.15 µg/mL
Clc1ccc(N=C2/C(=C/c3ccco3)CNC/C2=C\c2ccco2)c(Cl)c1	H37Rv	agar / visual reading	MIC	-	3.125 µg/mL
CC1OC(=O)c2c(O)cccc21	H2	-	MIC	-	300 µg/mL
NC(=O)C(=S)Nc1ccccc1N	H37Rv	-	MIC	-	111 µM
O=C(Nn1c(-c2ccccc2)ccc1-c1ccccc1)c1ccncc1	H37Rv	turbidity	EC50	-	2.71 µg/mL
Nc1ccccc1NC(=S)C(=O)Nc1cccc2ccccc12	H37Rv	-	MIC	-	111 µM
Cc1ccc2c(=O)n(-c3ccccc3)c(=O)oc2c1	CNCTC MY331/88	-	MIC	-	62 µM
CS[C@@]1(Cc2ccccc2)NC(=O)[C@@](Cc2ccccc2)(SC)N(C)C1=O	H37Ra	-	MIC	-	100 µg/mL
S=C(NCCN1CCN2Cc3[nH]c4ccccc4c3CC2C1)Nc1ccccc1	H37Rv	resazurin	inhibition	6.25 µg/mL	73%
Cc1ccc2c(=O)n(-c3ccc(Br)cc3)c(=O)oc2c1	CNCTC MY331/88	-	MIC	-	62 µM
OC[C@H]1N[C@@H](CSc2ccncc2)[C@@H](O)[C@@H]1O	H37Ra	BACTEC	EC50	-	>12.5 µg/mL
CN(C)c1ccc(/C=N/NC(=O)CNC(=O)n2ccnc2)cc1	H37Rv	BACTEC	MIC bound	-	>12.5 µg/mL
Cc1cc2c(cc1C)[n+]([O-])c(NC(=O)OC(C)C)c(C#N)[n+]2[O-]	H37Rv	-	MIC	-	<12.5 µg/mL
CCC1CN2C(=N1)c1ccccc1-c1cc([N+](=O)[O-])ccc12	H37Rv	resazurin	inhibition	6.25 µg/mL	65%
O=C(Nc1ccccc1)C(=S)Nc1ccccc1O	H37Rv	-	MIC	-	37 µM
NNC(=O)N=C1/C(=C/c2ccco2)CNC/C1=C\c1ccco1	H37Rv	agar / visual reading	MIC	-	6.25 µg/mL
CC(C)OC(=O)Nc1c(C#N)[n+]([O-])c2cc(Cl)c(Cl)cc2[n+]1[O-]	H37Rv	-	inhibition	6.25 µg/mL	99%
CC(C)c1ccc2nc3ccc(C(=O)NCCN(C)C)cn3c(=O)c2c1	H37Rv	BACTEC	MIC bound	-	>12.5 µg/mL
N#C/C(=C\c1ccco1)n1nnc2ccccc21	H37Rv	-	inhibition	12.5 µg/mL	33%
c1cc2c[n+](c1)CCCCCCCCCCCCCc1ccc[n+](c1)CCCCCCCCCCCCC2	H37Rv	-	MIC	-	8 µg/mL
CCCC[C@]1(C(=O)CCC)CC[C@@]2(c3ccccc3)ON12	H37Ra	-	MIC	-	100 µg/mL
CCCCCCCCCCCCCCCCNC[C@H]1OC2OC(C)(C)OC2C2OC(C)(C)OC21	H37Rv	-	MIC	-	<12.5 µg/mL
C#CCNC1=C(C)C(=O)C2=C(C1=O)[C@@H](COC(N)=O)[C@@]1(OC)[C@H]3N[C@H]3CN21	H37Rv	BACTEC	inhibition	12.5 µg/mL	99%
COc1ccc(OC)c(NCc2cnc3nc(N)nc(N)c3c2C)c1	H37Ra	-	MIC	-	16 µg/mL
O=C(O)/C(=C\c1ccc(Br)cc1)n1nnc2ccccc21	H37Rv	-	inhibition	12.5 µg/mL	0%
Cc1cccnc1NC(=O)c1csnn1	H37Rv	BACTEC	MIC	-	≥12.5 µg/mL
C/C=N/NC(=O)c1ccncc1	Erdman	colony count	inhibition	3 µg/mL	90%
NC(=O)/C(=C\c1ccc(Cl)cc1)n1nnc2ccccc21	H37Rv	-	EC50	-	>12.5 µg/mL
CC(=O)N[C@H]1[C@@H](O[C@@H]2O[C@H](C[C@@H](O)[C@H]3O[C@@H](n4ccc(=O)[nH]c4=O)[C@H](O)[C@@H]3O)[C@H](O)[C@H](O)[C@H]2NC(=O)/C=C/CC(C)C)O[C@H](CO)[C@@H](O)[C@@H]1O	H37Rv	BACTEC	inhibition	12.5 µg/mL	100%
CCCOc1ccc(OCC)cc1NCc1cnc2nc(N)nc(N)c2c1C	H37Ra	-	MIC	-	64 µg/mL
CN(C)CCCNC(=O)Nc1c(C#N)[n+]([O-])c2cc(Cl)c(Cl)cc2[n+]1[O-]	H37Rv	-	MIC	-	<12.5 µg/mL
c1cc2c[n+](c1)CCCCCCCCCCCCCc1ccc[n+](c1)CCCCCCCCCC2	H37Rv	-	MIC	-	8 µg/mL
NC(=[SH+])[N-]/N=C/c1cc(-c2cccc(N)c2)ccn1.[Cl][Cu]	H37Rv	BACTEC	MIC bound	-	>12.5 µg/mL
CC(C)Cc1ccc(C(C)C(=O)Nn2c(-c3ccccc3)ccc2-c2ccccc2)cc1	H37Rv (ATCC 27294)	resazurin	inhibition	100 µg/mL	100%
CSC(=S)NCc1nnn(Cc2ccccc2)c1N	H37Rv	BACTEC	inhibition	128 µg/mL	91%
COc1ccc(-n2c(=O)oc3ccccc3c2=O)cc1	CNCTC MY331/88	-	MIC	-	125 µM
ONC(=S)NN=C1/C(=C/c2ccco2)CNC/C1=C\c1ccco1	H37Rv	agar / visual reading	MIC	-	3.125 µg/mL
CCN(CC)c1ccc2nc3c(oc2c1)c1c(O)c2c(=O)c(C)c4c(c23)C(=O)[C@@](C)(O/C=C/[C@H](OC)[C@@H](C)[C@@H](OC(C)=O)[C@H](C)[C@H](O)[C@H](C)[C@@H](O)[C@@H](C)/C=C/C=C(/C)C(=O)N1)O4	H37Rv	-	MIC	-	0.07 µg/mL
Cc1ccc2c(=O)n(-c3ccc(C#N)cc3)c(=O)oc2c1	CNCTC MY331/88	-	MIC	-	16 µM
CC(=O)N1CCc2c(sc(NC(=O)c3cccs3)c2C(N)=O)C1	H37Rv (ATCC 27294)	agar	MIC100	-	9.15 µM
CN1C(=O)[C@]2(CO)NC(=O)[C@@]1(Cc1ccccc1)SS[C@@]1(CO)NC(=O)[C@](Cc3ccccc3)(NC1=O)SS2	H37Ra	-	MIC	-	12.5 µg/mL
OC[C@H]1N[C@@H](CSc2ccccc2)[C@@H](O)[C@@H]1O	H37Ra	BACTEC	EC50	-	>12.5 µg/mL
c1cc2c[n+](c1)CCCCCCCCCCCCc1ccc[n+](c1)CCCCCCCCCCC2	H37Rv	-	MIC	-	8 µg/mL
OC(C1CCCCN1)C1CC(c2ccccc2)Nc2c(Cl)cc(Cl)cc21	H37Rv	BACTEC	MIC	-	6.25 µg/mL
CCc1nc2ccc(Cl)cn2c1C(=O)NCc1ccc(N2CCC(c3ccc(OC(F)(F)F)cc3)CC2)cc1	N0145	turbidity	MIC50	-	0.0028 µM
CCCCOc1ccc(OC)c(NCc2cnc3nc(N)nc(N)c3c2C)c1	H37Ra	-	MIC	-	32 µg/mL
CON=C1/C(=C/c2ccco2)CNC/C1=C\c1ccco1	H37Rv	agar / visual reading	MIC	-	6.25 µg/mL
N#Cc1nc(CSc2ccc(Cl)cc2)cnc1N	H37Rv	BACTEC	MIC	-	≥12.5 µg/mL
O=c1oc2ccccc2c(=O)n1-c1ccc(Cl)cc1	CNCTC MY331/88	-	MIC	-	16 µM

A second listing of 11 rows from above:

SMILES,strain or isolate,method,read-out,tested at,value
O=c1oc2ccccc2c(=O)n1-c1ccc(Cl)cc1,CNCTC MY331/88,-,MIC,-,16 µM
CC1OC(=O)c2ccc(O)cc21,H2,-,MIC,-,300 µg/mL
CON=C1/C(=C/c2ccco2)CNC/C1=C\c1ccco1,H37Rv,agar / visual reading,MIC,-,6.25 µg/mL
CC(=O)N[C@H]1[C@@H](O[C@@H]2O[C@H](C[C@@H](O)[C@H]3O[C@@H](n4ccc(=O)[nH]c4=O)[C@H](O)[C@@H]3O)[C@H](O)[C@H](O)[C@H]2NC(=O)/C=C/CC(C)C)O[C@H](CO)[C@@H](O)[C@@H]1O,H37Rv,BACTEC,inhibition,12.5 µg/mL,100%
Clc1ccc(N=C2/C(=C/c3ccco3)CNC/C2=C\c2ccco2)cc1,H37Rv,agar / visual reading,MIC,-,6.25 µg/mL
ONC(=S)NN=C1/C(=C/c2ccco2)CNC/C1=C\c1ccco1,H37Rv,agar / visual reading,MIC,-,3.125 µg/mL
c1cc2c[n+](c1)CCCCCCCCCCCCCc1ccc[n+](c1)CCCCCCCCCCCCC2,H37Rv,-,MIC,-,8 µg/mL
CCCCCCCCCCCCCCCCNC(CCO)C1OC2OC(C)(C)OC2[C@@H]1OC,H37Rv,-,MIC,-,6.25 µg/mL
COC(=O)c1cc(NC(=O)Nc2cc(C(=O)OC)n(C)n2)nn1C,H37Rv,resazurin,MIC bound,-,>6.25 µg/mL
C#CCNC1=C(C)C(=O)C2=C(C1=O)[C@@H](COC(N)=O)[C@@]1(OC)[C@H]3N[C@H]3CN21,H37Rv,BACTEC,inhibition,12.5 µg/mL,99%
O=C(Nc1ccccc1)C(=S)Nc1ccccc1O,H37Rv,-,MIC,-,37 µM